Measured values as given in patent US8674085B2, “2′-branched nucleosides and Flaviviridae mutation” (priority 2002, dated 2014).

What was measured:
[1] = test system: BVDV strain I-N-dIns (wild type); type: cell-based, bovine viral diarrhea virus
Protocol: To conduct the virus focus assay, MDBK cells were seeded onto 6-well plates containing 2×10^5 cells per well and grown at 37° C./5% CO2 for at least 5 hours before use. The test samples (culture supernatants combined with cell monolayers) were frozen/thawed twice, serially diluted by 10-fold in medium, and used to inoculate test cells in 6-well plates at 0.2 mL per well. The inoculum was removed after 1 hour of adsorption, and the cells were overlaid with 3 mL of 0.5% agarose in complete growth medium (1× DMEM (Cellgro), supplemented with 8% horse serum, penicillin, streptomycin, L-glutamine, sodium pyruvate, and 25 mM HEPES). After 3 days of incubation at 37° C./5% CO2, the plates were fixed for 1 hour with 3 mL of 7.4% formaldehyde in PBS, and washed with PBS. The cell monolayers were permeabilized with 1 mL of PBS-0.25% Triton X-100 per well for 10 minutes, and incubated with 0.5 mL of goat anti-BVDV antiserum (VMDR, Inc.; diluted 1:1000 in PBS-0.25% Triton X-100) for 1 hour. The antiserum was then removed, and cell monolayers were washed with PBS (twice for 15 min) and incubated with 0.5 mL of peroxidase-conjugated donkey anti-goat antibody (diluted 1:1000 in PBS-0.25% Triton X-100) for another 1 hour. After the antibody was removed, the cell monolayers were washed with PBS (twice for 15 min), and incubated with 0.5 mL of diaminobenzidine (DAB) peroxidase substrate solution (Vector Laboratories) at room temperature until virus foci become visible (approximately 15 minutes). All incubations were carried out with rocking. The staining was stopped by washing with water and the plates were allowed to air dry. Virus titers were calculated in FFU/mL, using the following equation: TFFU/mL=N×5×D; where T is a virus titer in FFU/mL; N is a number of foci per well; and D is a dilution factor for the corresponding virus sample. […]
To conduct the virus yield reduction assay, MDBK cells were seeded onto 24-well plates (1×10^5 cells per well) and grown at 37° C./5% CO2 overnight. […] The virus titer in the cell culture was quantified by focus assay as described above. […]

[2] = test system: BVDV (strain I-N-dIns) in persistently infected MDBK cells; experiment: Single or double treatment of persistently infected MDBK cells, virus titers by focus assay; type: cell-based, bovine viral diarrhea virus; settings: for log value of the BVDV titer: 0 μM β-D-2′-CH3-riboC, 7 days (two passages)
Protocol: Persistent BVDV infection was established in MDBK cell line (ATCC, Manassas, Va., Catalog #: CCL-22) by in vitro infection of naive cells with a noncytophatic (ncp) BVDV (strain I-N-dIns; Dr. R. Donis, U. of Nebraska, Lincoln, Nebr.). The multiplicity of infection (MOI) was 0.01. Cells were passaged twice per week (splitting ratio 1:15) until the stable high-level of infection (10^6-10^7 focus forming units (FFU) per mL) was achieved, as was determined by a focus assay. Next, the persistently infected cells were grown in 6-well culture plates with 8 μM or without β-D-2′-CH3-riboC (Idenix Pharmaceuticals). Cell cultures were passaged every three to four days by splitting with a ratio of 1:15 to 1:20. […] The virus titers in cell cultures were monitored at the end of each passage by the virus focus assay.
To conduct the virus focus assay, MDBK cells were seeded onto 6-well plates containing 2×10^5 cells per well and grown at 37° C./5% CO2 for at least 5 hours before use. The test samples (culture supernatants combined with cell monolayers) were frozen/thawed twice, serially diluted by 10-fold in medium, and used to inoculate test cells in 6-well plates at 0.2 mL per well. The inoculum was removed after 1 hour of adsorption, and the cells were overlaid with 3 mL of 0.5% agarose in complete growth medium (1× DMEM (Cellgro), supplemented with 8% horse serum, penicillin, streptomycin, L-glutamine, sodium pyruvate, and 25 mM HEPES). After 3 days of incubation at 37° C./5% CO2, the plates were fixed for 1 hour with 3 mL of 7.4% formaldehyde in PBS, and washed with PBS. The cell monolayers were permeabilized with 1 mL of PBS-0.25% Triton X-100 per well for 10 minutes, and incubated with 0.5 mL of goat anti-BVDV antiserum (VMDR, Inc.; diluted 1:1000 in PBS-0.25% Triton X-100) for 1 hour. The antiserum was then removed, and cell monolayers were washed with PBS (twice for 15 min) and incubated with 0.5 mL of peroxidase-conjugated donkey anti-goat antibody (diluted 1:1000 in PBS-0.25% Triton X-100) for another 1 hour. After the antibody was removed, the cell monolayers were washed with PBS (twice for 15 min), and incubated with 0.5 mL of diaminobenzidine (DAB) peroxidase substrate solution (Vector Laboratories) at room temperature until virus foci become visible (approximately 15 minutes). All incubations were carried out with rocking. The staining was stopped by washing with water and the plates were allowed to air dry. Virus titers were calculated in FFU/mL, using the following equation: TFFU/mL=N×5×D; where T is a virus titer in FFU/mL; N is a number of foci per well; and D is a dilution factor for the corresponding virus sample.
The effect of Intron A, alone or in combination with β-D-2′-CH3-riboC, on the wild type BVDV was further studied in the persistently infected MDBK cells. In one experimental setting, the virus titers were determined after 7 days (two passages) of single or double treatment with several inhibitor concentrations.

Interferon alpha-2b: Intron-A (interferon alpha-2b) by Schering [reference compound]
EC90 [1]: 119 ± 34.1 µM | EC4 log ([1]; BVDV strain I-N-dIns, ncp, concentration reducing viral titer by 99.99%, 48 hours): >800 μM | reduction in virus yield ([1]; wild type virus, highest drug concentration tested): ~1.5 log | log value of the BVDV titer ([2]; 5 IU/mL Interferon alpha-2b): 6.81 log | log value of the BVDV titer ([2]; 50 IU/mL Interferon alpha-2b): 6.95 log | log value of the BVDV titer ([2]; 200 IU/mL Interferon alpha-2b): 6.73 log | log value of the BVDV titer ([2]; 1000 IU/mL Interferon alpha-2b): 6.41 log | log value of the BVDV titer ([2]; 2000 IU/mL Interferon alpha-2b): 6.51 log | reduction of viral titers ([2]; single treatment, 2000 IU/mL interferon alpha-2b, 7 days): 0.1 log
